System: M. mazei Adriase
Assay: Pulldown of M. mazei whole cell extract with bead-coupled tagged M. mazei Adriase, LC-MS/MS of eluate
Conditions: for Intensity (Experiment 2.3): bait Adriase coupled via C-terminal HA-tag; for Intensity (Experiment 2.2): bait Adriase coupled via C-terminal Myc-tag; for Intensity (Experiment 2.1): bait Adriase coupled via C-terminal Strep-tag

| Substance | Intensity (Experiment 2.3) | Intensity (Experiment 2.2) | Intensity (Experiment 2.1) |
| --- | --- | --- | --- |
| MtrH: subunit of the M. mazei MtrA-MtrH complex detected in pulldown | 2.0E+08 arbitrary units | 6.5E+07 arbitrary units | 6.0E+07 arbitrary units |
| MtrE: subunit of the M. mazei MtrA-MtrH complex detected in pulldown | 3.8E+06 arbitrary units | 2.2E+06 arbitrary units | 2.1E+06 arbitrary units |
| MtrG: subunit of the M. mazei MtrA-MtrH complex detected in pulldown | 1.5E+07 arbitrary units | 1.2E+06 arbitrary units | 8.6E+05 arbitrary units |
